Pooled drug test results. Numbers come from NIAID ChemDB, via PubChem.

Common to all: host cell toxicity; measure: CC50

Neighbouring rows are from separate reports.

compound | cells | read by | value
O=C1NC(=O)C(CSc2ccccc2)(CSc2ccccc2)N1 | CEM | - | >64 µM
Nc1nc2c(ncn2C=C2CC2(F)CO)c(=O)[nH]1 | DAUDI | - | >199 µM
Cc1cccc(Cn2ccc3nc(-c4ccccc4)nc-3c2)c1 | MDBK | - | 40 µg/mL
CCN(CC)C(=O)OCC1CN(C(=O)c2cc(OC)c(OC)c(OC)c2)CCN1C(=S)c1cc(OC)c(OC)c(OC)c1 | MDM | neutral red | >100 µM
Cc1cc(C=O)cc(C)c1Oc1cc(Nc2ccc(C#N)cc2)c2ccccc2n1 | HuCCA-1 | MTT | ≥50 µg/mL
CCN(CC)C(=O)OCC1CN(C(=O)c2cc(OC)c(OC)c(OC)c2)CCN1C(=O)c1cc(OC)c(OC)c(OC)c1 | MDM | neutral red | >1000 µM
COC1=CC(=O)c2c(O)c3c(c(O)c2C1=O)CC(C)(O)OC3 | Panc-1 | MTT | 2.7 µg/mL
OCC1OC(O)CC1OP(O)(=S)OCC1OC(O)CC1OP(O)(=S)OCC1OC(O)CC1OP(O)(=S)OCC1OC(O)CC1OOP(O)(=S)OCC1OC(O)CC1OP(O)(=S)OCC1OC(O)CC1OP(O)(=S)OCC1OC(O)CC1OP(O)(=S)OCC1OC(O)CC1OOP(O)(=S)OCC1OC(O)CC1OP(O)(=S)OCC1OC(O)CC1OP(O)(=S)OCC1OC(O)CC1OP(O)(=S)OCC1OC(O)CC1OOP(O)(=S)OCC1OC(O)CC1O | Rhesus macaque PBMC | MTT | >250 µM
O=C1N(CCCCCCOc2ccc(Br)cc2)CCN1c1ccncc1 | RD | - | >25 µM
CC(C)(C)OC(=O)NCCCCC(=O)NCCN1CCC(NC(=O)C(=O)Nc2ccc(Cl)cc2)CC12CCCCC2 | PM1 | WST | 56 µM
S=C1NC(=S)C(CSCc2ccccc2)(CSCc2ccccc2)N1 | CEM | - | >16 µM
COc1ccc(Nc2nc3ccc(C)cc3s2)c(OC)c1 | Ava5 | MTS | 28 µM
O=C(Nc1ccc(Cl)c(F)c1)C(=O)NC1CCNC2(CCCCC2)C1 | PM1 | WST | 219 µM
Clc1ccc2nc(/C=C/c3ccccc3)cc(Cl)c2c1 | TZM-bl | MTT | 7.66 µM
O=c1oc2ccccc2cc1CNc1cccc(O)c1 | Ava5 | MTS | 200 µM
CCCN(Cc1ccccc1OCC(=O)OCC)C(=O)c1ccc(-c2ccc3c(c2)OCO3)cc1 | BJ | - | >20 µM
[N-]=[N+]=N[C@H]1[C@@H](F)[C@H](N2C=CC(N)NC2=O)O[C@@H]1CO | VERO B | - | >400 µg/mL
Cc1cn([C@H]2C[C@H](F)[C@@H](CO)O2)c(=O)[nH]c1=O | MAGI | MTT | >100 µg/mL
Nc1ccc(CSCC2(CSCc3ccc(N)cc3)NC(=O)NC2=O)cc1 | CEM | - | >100 µM
COc1cc(NCc2cc3ccccc3oc2=O)cc(OC)c1OC | Ava5 | MTS | 120 µM
CCN(CC)C(=O)OCC1CN(C(=O)c2cc(OC)c(OC)c(OC)c2)CCN1 | MDM | neutral red | >100 µM
CCCCNC(=S)Nc1cccc(OCCCCCc2ccccc2)c1 | Ava5-EG(delta4AB)SEAP | MTS | >1 µM
CO[C@@H]1[C@@H](OC(N)=O)[C@@H](O)[C@H](Oc2ccc3c(O)c(NC(=O)c4ccc(O)c(CC=C(C)C)c4)c(=O)oc3c2C)OC1(C)C | SK-K | - | 31 µg/mL
CCN(CC)C(=O)OCC1CN(C(=O)c2cc(OC)c(O)c(OC)c2)CCN1C(=O)c1cc(OC)c(OC)c(OC)c1 | MDM | neutral red | >100 µM
O=C(/C=C/c1ccc(O)c(O)c1)O[C@H]1[C@H](O)C[C@](O)(C(=O)O)C[C@H]1OC(=O)/C=C/c1ccc(O)c(O)c1 | HEP-2 | - | >100 µg/mL
Cc1cn([C@H]2O[C@H](CO)[C@@H](N=[N+]=[N-])[C@H]2F)c(=O)nc1N | VERO B | - | >400 µg/mL
NC(=S)Nc1cccc(OCCCCCOc2ccc(-n3ccnc3)cc2)c1 | Ava5-EG(delta4AB)SEAP | MTS | >1 µM
CC(C)N(Cc1cccc(OCCCCCC(=O)OC(=O)O)c1)C(=O)c1ccccc1 | HepG2 | - | >20 µM
CCCNC(=S)Nc1cccc(OCCCCCc2ccccc2)c1 | Ava5-EG(delta4AB)SEAP | MTS | >1 µM
NCCN1CCC(NC(=O)C(=O)Nc2ccc(Cl)cc2)CC12CCCCC2 | PM1 | WST | 45 µM
Cc1cccc(Nc2nc3ccc(C)cc3s2)c1 | Ava5 | MTS | 160 µM
NC(=S)Nc1cccc(OCCCOc2ccccc2)c1 | Ava5-EG(delta4AB)SEAP | MTS | >1 µM
C[C@H]([C@@H]1CC[C@@H](C)C(=O)O1)[C@H]1CC[C@@]2(C)C3=C(CC[C@]12C)[C@@]1(C)CC[C@@H](O)C(C)(C)C1CC3 | NCI-H187 | resazurin | >50 µg/mL
CCOC(=O)CCCCCOc1cccc(CN(C(=O)c2ccc(-c3cccc(N(C)C)c3)cc2)C(C)C)c1 | RAJI | - | >20 µM
O=C1NC(=O)C(CSCc2ccccn2)(CSCc2ccccn2)N1 | CEM | - | >100 µM
CCCCCCNC(=S)Nc1cccc(OCCCCCc2ccccc2)c1 | Ava5-EG(delta4AB)SEAP | MTS | >1 µM
COc1cc(O)c2c(c1O)C1O[C@]3(C)C[C@H]1[C@@H](CO3)C2=O | MDA-MB-231 | MTT | 64.2 µg/mL
COc1ccc(Nc2nc3ccc(C)cc3s2)c(OC)c1OC | Ava5 | MTS | 200 µM
CCN(CC)C(=O)OCC1CN(Cc2noc(=O)[nH]2)CCN1C(=O)c1cc(OC)c(OC)c(OC)c1 | MDM | neutral red | >100 µM
CC(C)(C)c1ccc(Cn2ccc3nc(-c4ccccc4)nc-3c2)cc1 | MDBK | - | 40 µg/mL
CCCc1cc(=O)[nH]c(SC(C)C(=O)Nc2cccc(Cl)c2)n1 | MT-2 human T-cells | MTT | 53 µM
CC(=O)O[C@@H](C/C=C(\C)C(=O)O)[C@@H](C)[C@H]1CC[C@@]2(C)C3=C(CC[C@]12C)[C@@]1(C)CCC(=O)C(C)(C)C1CC3 | NCI-H187 | resazurin | 18.57 µg/mL
NCC(=O)NCCN1CCC(NC(=O)C(=O)Nc2ccc(Cl)cc2)CC12CCCCC2 | PM1 | WST | 54 µM
Cc1ccc(NCc2cc3ccccc3oc2=O)c(C)c1 | Ava5 | MTS | >200 µM
C[C@H]1[C@H](O)[C@@H](C)/C=C/C=C/C=C/C=C/C=C/C=C/C=C/[C@H](O[C@@H]2O[C@H](C)[C@@H](O)[C@H](N)[C@@H]2O)C[C@@H]2O[C@](O)(C[C@@H](O)C[C@@H](O)CC[C@H](O)[C@@H](O)C[C@@H](O)CC(=O)O[C@H]1C)C[C@H](O)[C@H]2C(=O)O | MDM | MTT | >10 µM
Brc1ccc(Cn2ccc3nc(-c4ccccc4)nc-3c2)cc1 | MDBK | - | 28 µg/mL
OCCOCn1cnc2c(Cl)cc(Cl)cc21 | KB | - | >100 µM
Cc1cc(Cl)ccc1NCc1cc2ccccc2oc1=O | Ava5 | MTS | 188 µM
COc1ccc(/C=C/c2cc(Cl)c3ccccc3n2)c(OC)c1 | TZM-bl | MTT | 40.52 µM
CCOC(=O)CCCCCOc1cccc(CN(C(=O)c2ccc(-c3cc(OC)ccc3F)cc2)C(C)C)c1 | HEK 293 | - | >20 µM
C/C(=N\NC(=O)c1ccncc1)c1ccc(Cl)cc1Cl | HEL cells | MTT | 11 µg/mL
C/C(=C\C[C@H](O)[C@@H](C)[C@H]1CC[C@@]2(C)C3=C(CC[C@]12C)[C@@]1(C)CC[C@H](O)C(C)(C)C1CC3)C(=O)O | NCI-H187 | resazurin | >50 µg/mL
O=[N+]([O-])c1ccccc1/C=C/c1cc(Cl)c2cc(Cl)ccc2n1 | TZM-bl | MTT | 47.03 µM
CCOC(=O)CCCCCOc1cccc(CN(C(=O)c2ccc(-c3ccncc3)cc2)C(C)C)c1 | HEK 293 | - | >20 µM
COc1cc(/C=C/c2cc(Cl)c3cc(Cl)ccc3n2)cc(OC)c1OC | TZM-bl | MTT | 36.64 µM
OC[C@H]1O[C@@H](n2c(Cl)nc3cc(Cl)c(Cl)cc32)[C@H](O)[C@@H]1O | KB | - | 210 µM
Cc1cn(C2C[C@H](N=[N+]=[N-])[C@@H](COP(=O)(Nc3cc(C(=O)Nc4cc(C(=O)Nc5cc(C(=O)NCCC#N)n(C)c5)n(C)c4)n(C)c3)OC(C)C)O2)c(=O)[nH]c1=O | CEM/TK- | MTT | 177 µM
CCOC(=O)CCCCCOc1cccc(CN(C(=O)c2ccc(-c3cccc(Br)c3)cc2)C(C)C)c1 | HEK 293 | - | >20 µM
COc1c(C(=O)c2c[nH]c(-c3nc4ccccc4[nH]3)c2)c(O)c(OC)c2occc12 | HCV replicon cells | - | 765 µM
COc1cccc(/C=C/c2cc(Cl)c3cc(Cl)ccc3n2)c1OC | TZM-bl | MTT | 19.71 µM
COc1cc(O)c2c(c1O)C(=O)c1cc(C)ncc1C2=O | SupT1 | MTT | 122.3 µg/mL
NCCN(CCN)CCN1CCC(NC(=O)C(=O)Nc2ccc(Cl)cc2)CC12CCCCC2 | PM1 | WST | 41 µM
Cc1ccc(-n2ncc3c(=O)[nH]c(SCC(=O)c4ccc(Cl)cc4)nc32)cc1 | MT-2 human T-cells | MTT | >100 µM
N#Cc1ccc(Nc2cc(Oc3ccc(C#N)cc3)c3ccccc3n2)cc1 | HuCCA-1 | MTT | ≥50 µg/mL
Nc1ccn(C[C@@H](CO)OCP(=O)(O)O)c(=O)n1 | MKN-28 | - | 194.8 µg/mL
CC1c2ccccc2CN1S(=O)(=O)c1ccc2[nH]c(=O)[nH]c2c1 | MT-2 human T-cells | MTT | 1.3 µM
Clc1ccc2nc(/C=C/c3ccc(OCc4ccccc4)cc3)cc(Cl)c2c1 | TZM-bl | MTT | 63.5 µM
COc1ccc(OC)c(/C(C)=N/NC(=O)c2ccncc2)c1 | HEL cells | MTT | 100 µg/mL
Fc1cccc(Cn2ccc3nc(-c4ccccc4)nc-3c2)c1 | MDBK | - | 8.1 µg/mL
OCC(CO)OCn1c(Cl)nc2cc(Cl)c(Cl)cc21 | HFF | visual reading | >100 µM
COc1ccc(Cn2ccc3nc(-c4ccccc4)nc-3c2)cc1 | MDBK | - | 36 µg/mL
OCCOCn1c(=S)[nH]c2cc(Cl)c(Cl)cc21 | HFF | visual reading | >100 µM

The last 9 rows once more:

| compound | cells | read by | value |
|---|---|---|---|
| N#Cc1ccc(Nc2cc(Oc3ccc(C#N)cc3)c3ccccc3n2)cc1 | HuCCA-1 | MTT | ≥50 µg/mL |
| Nc1ccn(C[C@@H](CO)OCP(=O)(O)O)c(=O)n1 | MKN-28 | - | 194.8 µg/mL |
| CC1c2ccccc2CN1S(=O)(=O)c1ccc2[nH]c(=O)[nH]c2c1 | MT-2 human T-cells | MTT | 1.3 µM |
| Clc1ccc2nc(/C=C/c3ccc(OCc4ccccc4)cc3)cc(Cl)c2c1 | TZM-bl | MTT | 63.5 µM |
| COc1ccc(OC)c(/C(C)=N/NC(=O)c2ccncc2)c1 | HEL cells | MTT | 100 µg/mL |
| Fc1cccc(Cn2ccc3nc(-c4ccccc4)nc-3c2)c1 | MDBK | - | 8.1 µg/mL |
| OCC(CO)OCn1c(Cl)nc2cc(Cl)c(Cl)cc21 | HFF | visual reading | >100 µM |
| COc1ccc(Cn2ccc3nc(-c4ccccc4)nc-3c2)cc1 | MDBK | - | 36 µg/mL |
| OCCOCn1c(=S)[nH]c2cc(Cl)c(Cl)cc21 | HFF | visual reading | >100 µM |

An empty or dashed field is not shown. CCn: concentration that lowers growth or viability of the cells by n%.